{"source": "paper PMC11096021", "about": "(Immunity, 2024)", "key": {"[1]": {"molecular_target": "A/Michigan/45/2015 H1 trimer (biotinylated, for BLI) (Influenza A virus A/Michigan/45/2015 …, strain, biotin on the avi tag (BirA))", "conditions": "both partners purified"}, "[2]": {"molecular_target": "A/Perth/16/2009 H3 trimer (biotinylated, for BLI) (Influenza A virus A/Perth/16/2009 (H3N2), strain, biotin on the avi tag (BirA))", "conditions": "both partners purified"}}}
{"binder": "09–1B12-UCA Fab (Lys-C digest of recombinant IgG, used for BLI) (Fab, V domains shown) VH: QVQLVQSGAEVKKPGASVKVSCKASGYTFTSYGISWVRQAPGQGLEWMGWISAYNGNTNYAQKLQGRVTMTTDTSTSTAYMELRSLRSDDTAVYYCARGLLQGVVILDSYYYTMDVWGQGTTVTVSS VL: not shown", "values": [{"measurement": "binding result", "setting": "[1]", "value": "no binding"}, {"measurement": "Kd", "setting": "[2]", "value": 124, "unit": "nM"}]}
